The subject of the assay is Escherichia coli. The note with it: ATCC 25922.

Usually MIC stands for the lowest concentration found to suppress growth. High values mean a less susceptible organism, low ones a more susceptible organism.

For the sequence GENTAMICIN, 0.5 µg/mL was the least that counted as inhibitory (MIC).
